Tested on: young mice
Test: Neurotoxic activity: intracerebral injection in young mice, behavior patterns
Details: even at high doses

Gla Cys Cys Gla Asp Gly BrW Cys Cys Thr Ala Ala OHP
death of animals: did not cause death in any of the animals tested
